Measured values from several laboratories, pooled; numbers as filed in NIAID ChemDB.

All rows: target-level tests; organism: HIV-1; protein: Integrase; endpoint: IC50

Rows are shuffled and stem from different studies. ICn is the concentration giving n% inhibition.

{"SMILES": "O=S(=O)(Nc1nnc2n1-c1ccccc1CC2)c1ccc(Cl)cc1S", "result": "13.8 µM"}
{"SMILES": "O=C(/C=C/c1ccc(O)c2c1[C@H](C(=O)O)[C@@H](c1ccc(O)c(O)c1)O2)O[C@H](Cc1ccc(O)c(O)c1)C(=O)O", "result": "0.7 µM"}
{"SMILES": "C[C@@H]1CCO[C@H]2Cn3cc(C(=O)NCc4ccc(F)cc4F)c(=O)c(O)c3CN12", "mutations": "N155H", "result": "0.032 µM"}
{"SMILES": "O=C1NC(=O)C2(OC(=O)C(=O)/C2=C(\\O)c2ccccc2)C(=O)N1", "result": ">100 µM"}
{"SMILES": "O=C1c2ccccc2C(=O)c2c1cc(S(=O)(=O)O)c(O)c2O", "result": "3 µM"}
{"SMILES": "Cc1cc(S(=O)(=O)/N=C(\\NN)Nc2ccc(Cl)cc2)c(S)cc1Cl", "result": "2.7 µM"}
{"SMILES": "O=C(CC1(O)C(=O)Nc2ccc(Br)cc21)c1ccccn1", "result": ">100 µM"}
{"SMILES": "Cc1ccnc(C(=O)CC(=O)c2cc(Cc3ccccc3)cc(CN3CCCS3(=O)=O)c2)c1", "result": "0.03 µM"}
{"SMILES": "COc1cc2c(cc1O)C[C@@H]1NCCc3cc(O)c(OC)c-2c31", "result": "7.7 µM"}
{"SMILES": "CNS(=O)(=O)OC1C2OC([C@@H](C)C(C)C)C[C@@H](C)[C@@H]2[C@@]2(C)CC[C@H]3[C@@H]([C@@H](O)[C@@H](O)[C@H]4[C@@H](O)[C@H](OS(=O)(=O)O)CC[C@@]43C)[C@H]12", "result": "50 µg/mL"}
{"SMILES": "O=C(/C=C(\\O)c1ccc(Cl)cc1)C(=O)Nc1ccccc1", "result": "1.9 µM"}
{"SMILES": "O=C1c2ccc(O)c(O)c2C(=O)c2c(O)ccc(O)c21", "result": "4 µM"}
{"SMILES": "O=C(NCc1ccc(F)cc1)c1nc(N2CCCCS2(=O)=O)c2cccnc2c1O", "result": "0.01 µM"}
{"SMILES": "Oc1c2c(cc3c1-c1c4c(cc5c1[C@H](C3)NCC5)OCO4)OCO2", "result": ">100 µM"}
{"SMILES": "O=C(/C=C/c1ccc(O)c(O)c1)O[C@@H]1C[C@](OC(=O)/C=C/c2ccc(O)c(O)c2)(C(=O)O)C[C@@H](O)[C@H]1O", "strain": "LAI", "result": "0.47 µM"}
{"SMILES": "C=C1[C@H]2C[C@H]2[C@]2(C)Cc3occ(C)c3[C@H](O)[C@@H]12", "result": ">100 µM"}
{"SMILES": "Cc1ccnc(C(=O)CC(=O)c2cccc(Cc3ccccc3)c2)c1", "result": "0.05 µM"}
{"SMILES": "CC1=C(C[C@]2(C)C(C=O)=C(C)[C@H]3C[C@H]32)C(=O)OC1=O", "result": ">100 µM"}
{"SMILES": "Cc1cc(S(=O)(=O)/N=C(/NN)NNc2cccc(C(F)(F)F)n2)c(S)cc1Cl", "result": "124.6 µM"}
{"SMILES": "CC1=CCCC2=C[C@@H](OC2=O)c2c(C)coc2C1", "result": ">100 µM"}
{"SMILES": "Cc1cc2nc3nc(N)nc(NS(=O)(=O)c4cc(C)c(Cl)cc4S)n3c2cc1C", "result": "3.4 µM"}
{"SMILES": "COC(=O)C(=O)OC1(C(=O)O)C[C@@H](OC(=O)/C=C/c2ccc(O)c(O)c2)C(O)[C@H](OC(=O)/C=C/c2ccc(O)c(O)c2)C1", "strain": "LAI", "result": "0.84 µM"}
{"SMILES": "COc1c(O)ccc2c1-c1c3c(cc4ccnc(c14)C2=O)OCO3", "result": "18.2 µM"}

3 of the rows above, restated:

{"SMILES": "O=C1c2ccc(O)c(O)c2C(=O)c2c(O)ccc(O)c21", "result": "4 µM"}
{"SMILES": "O=C(NCc1ccc(F)cc1)c1nc(N2CCCCS2(=O)=O)c2cccnc2c1O", "result": "0.01 µM"}
{"SMILES": "O=C(/C=C/c1ccc(O)c(O)c1)O[C@@H]1C[C@](OC(=O)/C=C/c2ccc(O)c(O)c2)(C(=O)O)C[C@@H](O)[C@H]1O", "strain": "LAI", "result": "0.47 µM"}